# Results reported in patent US9498483B2, “2,3,5-trisubstituted thiophene compounds and uses thereof” (priority 2010, dated 2016).
# Target: HCV polymerase (Hepatitis C virus genotype 1b, UniProt Q9WMX2)
# Experiment: Polymerase assay of Biological Example 1 (IC50 values of Table 3)
# Type: biochemical
# Details: read-out: NS5B-enzyme3; IC50 values of Table 3, polymerase assay of Biological Example 1
# Description: A number of assays have been published to assess these activities. A general method that assesses the gross increase of HCV virus in culture was disclosed in U.S. Pat. No. 5,738,985 to Miles et al. In vitro assays have been reported in Ferrari et al. Jnl. of Vir., 73:1649-1654, 1999; Ishii et al., Hepatology, 29:1227-1235, 1999; Lohmann et al., Jnl of Bio. Chem., 274:10807-10815, 1999; and Yamashita et al., Jnl. of Bio. Chem., 273:15479-15486, 1998.
# WO 97/12033, filed on Sep. 27, 1996, by Emory University, listing C. Hagedorn and A. Reinoldus as inventors, which claims priority to U.S. Provisional Patent Application Ser. No. 60/004,383, filed on September 1995, described an HCV polymerase assay that can be used to evaluate the activity of the of the compounds described herein. Another HCV polymerase assay has been reported by Bartholomeusz, et al., Hepatitis C Virus (HCV) RNA polymerase assay using cloned HCV non-structural proteins; Antiviral Therapy 1996:1 (Supp 4) 18-24.
smiles,measurement,value
O=C(COc1ccccc1)NC1CC(=O)N(c2cc(-c3ccccc3)sc2C(=O)O)C(C2CCCCC2)C1 (stereo not shown),IC50,970 nM
